Measured values from PMC5537667.
The exact form of at least one protein or probe is not confirmed. At least one result comes from cells or an extract, where the contact may be indirect.

Amino acid sequences for entries named in this document (tags omitted). A change or cut given only in a name is not applied to a line headed by its entry.
UniProt P48431: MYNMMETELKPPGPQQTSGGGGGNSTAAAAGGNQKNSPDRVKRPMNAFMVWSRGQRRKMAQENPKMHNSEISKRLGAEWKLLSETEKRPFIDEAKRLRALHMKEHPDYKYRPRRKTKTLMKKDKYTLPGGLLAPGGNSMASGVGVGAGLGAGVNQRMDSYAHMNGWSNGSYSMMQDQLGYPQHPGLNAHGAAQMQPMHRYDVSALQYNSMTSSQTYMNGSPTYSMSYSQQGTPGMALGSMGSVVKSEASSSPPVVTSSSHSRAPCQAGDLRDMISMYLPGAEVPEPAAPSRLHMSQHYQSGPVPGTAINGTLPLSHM

Experiments:
SOX2 [1] = molecular target: SOX2 (UniProt P48431); experiment: competition with a labelled probe; details: protein in an extract, label: 32P end-label (unlabelled as competitor)
SOX2 [2] = molecular target: SOX2 (UniProt P48431); experiment: EMSA supershift; details: protein in an extract, label: 32P end-label (unlabelled as competitor)
[3] = anti-SOX2 2500 ng reduces the complexes, no supershifted band reported

“AACCATTCCATTGTTTTTTA (double strand) [S1 (HPV16 LCR site 1)]”: binds (SOX2 [1]; cold S1, 60 and 260 fold, against labelled CS: strong competition); binds (SOX2 [2]; [3]).

“AACTGCACATGGGTGTGTGCAAACCGT (double strand) [S3 (HPV16 LCR site 3)]”: binds (SOX2 [1]; cold S3, 60 and 260 fold, against labelled CS: strong competition); binds (SOX2 [2]; [3]).

“TAGTCATACAATGTTCATTT (double strand) [CS (SOX2 consensus)]”: binds (SOX2 [1]; cold CS, 50 and 250 fold (legend: 60/260), against labelled S1, S2 or S3: clear drop in complexes, EMSA: 15 ug HeLa nuclear extract in 20 uL, 300 mM KCl, 15 mM MgCl2, 30% glycerol, 1 M DTT, 10 ug/uL BSA); binds (SOX2 [2]; anti-SOX2 2500 ng gives supershift band, EMSA: 15 ug HeLa nuclear extract in 20 uL, 300 mM KCl, 15 mM MgCl2, 30% glycerol, 1 M DTT, 10 ug/uL BSA).

“TAGTCATACATTGTTCATTT (double strand) [S2 (HPV16 LCR site 2)]”: binds (SOX2 [1]; cold S2, 60 and 260 fold, against labelled CS: strong competition); binds (SOX2 [2]; [3]).
